Measured values from several laboratories, pooled; numbers as filed in NIAID ChemDB.

Shared fields: tests in culture; organism: Mycobacterium avium complex; read-out: MIC

Neighbouring rows are from separate reports. An empty or dashed field is not shown.

structure | strain | result
CC[C@H]1OC(=O)[C@H](C)[C@@H](OC2C[C@@](C)(OC)[C@@H](O)[C@H](C)O2)[C@H](C)[C@@H](O[C@@H]2O[C@H](C)C[C@H](N(C)C)[C@H]2O)C(C)(O)C[C@@H](C)/C(=N\OCCOc2ccccc2)[C@H](C)[C@@H](O)[C@]1(C)O | 20096 (clarithromycin-resistant) | 25 µg/mL
CC1(C)S[C@@H]2[C@H](NC(=O)[C@H](C(=O)[O-])c3ccsc3)C(=O)N2[C@H]1C(=O)[O-].[Na+].[Na+] | CIPT 140310006 | 35 µg/mL
CCCCCCCCNC(=O)O[C@H]1C(O[C@@H]2[C@@H](C)[C@H](O[C@H]3C[C@@](C)(OC)[C@@H](OC(C)=O)[C@H](C)O3)[C@@H](C)C(=O)O[C@H](CC)[C@@](C)(O)[C@H](O)[C@@H](C)/C(=N/OCCCC3CCCCC3)[C@H](C)CC2(C)O)O[C@H](C)C[C@@H]1N(C)C | 20034 | 0.2 µg/mL
CO[C@H]1/C=C/O[C@@]2(C)Oc3c(C)c(O)c4c(O)c(c(/C=N/N5CCN(C6CCCC6)CC5)c(O)c4c3C2=O)NC(=O)/C(C)=C\C=C\[C@H](C)[C@H](O)[C@@H](C)[C@@H](O)[C@@H](C)[C@H](OC(C)=O)[C@@H]1C | 101 | 1 µg/mL
CC(C)(C)NC(=O)OCCN=c1ssc2ccccc12 | AN3 | 2 µg/mL
Cc1c(F)c(N2CCNC(C)C2)cc2c1c(=O)c(C(=O)O)cn2C1CC1 | clinical strain 3 | 4 µg/mL
CO[C@H]1/C=C/O[C@@]2(C)Oc3c(C)c(O)c4c(O)c(c5c(c4c3C2=O)NC2(CCN(CC(C)C)CC2)N=5)=NC(=O)/C(C)=C\C=C\[C@H](C)[C@H](O)[C@@H](C)[C@@H](O)[C@@H](C)[C@H](OC(C)=O)[C@@H]1C | CIPT 140310003 (smooth) | 0.1 µg/mL
CCCCNC(=O)OCCn1sc2ccccc2c1=O | AN2 | >32 µg/mL
COc1ccc(CSc2cc(C(N)=S)ccn2)cc1 | MY330/88 | 62 µM
CCCCCCCCO[C@@H]1O[C@@H](C(COCc2ccccc2)O[C@@H]2O[C@@H](C(COC(C)=O)OC(C)=O)[C@H](OC(C)=O)[C@H]2OC(C)=O)[C@H](OCc2ccccc2)[C@H]1OCc1ccccc1 | NJ304 | >128 µg/mL
CC(C)NC(=O)OCCn1sc2ccccc2c1=O | ATCC 15769 | 16 µg/mL
CC[C@H]1OC(=O)[C@H](C)[C@@H](O[C@H]2C[C@@](C)(OC)[C@@H](OC(C)=O)[C@H](C)O2)[C@H](C)[C@@H](OC2O[C@H](C)C[C@H](N(C)C)[C@H]2OC(=O)NCCCCCCCCCCCCCCN(C)C)C(C)(O)C[C@@H](C)/C(=N\OCCCC2CCCCC2)[C@H](C)[C@@H](O)[C@]1(C)O | 20096 | 0.78 µg/mL
CCNC(=O)OCCN=c1ssc2ccccc12 | AN2 | 8 µg/mL
CCN=c1cc2n(-c3ccc(Cl)cc3)c3ccccc3nc-2cc1Nc1ccc(Cl)cc1 | 1017 | 0.25 µg/mL
CCCCCCCCO[C@@H]1O[C@@H]([C@H](COC)O[C@H]2O[C@H](COCc3ccccc3)[C@@H](OCc3ccccc3)[C@@H]2OCc2ccccc2)[C@H](OC)[C@H]1OC | NJ211 | >128 µg/mL
CCNC(=O)[C@@H](NC(=O)Cc1ccccc1)[C@@H]1N[C@@H](C(=O)NCCNC(=O)[C@@H]2N[C@@H]([C@H](NC(=O)Cc3ccccc3)C(=O)NCC)SC2(C)C)C(C)(C)S1 | CIPT 140310005 | 25 µg/mL
C[C@@H]1CN(c2c(F)c(N)c3c(=O)c(C(=O)O)cn(C4CC4)c3c2F)C[C@H](C)N1 | MO-1 | 0.5 µg/mL
CCCCCCCCO[C@@H]1O[C@@H](C(CO[C@@H]2O[C@@H](C(O)CO)[C@H](O)[C@H]2O)OC)[C@H](OC)[C@H]1OC | NJ211 | >128 µg/mL
CCCCCCCCOC1O[C@@H](C(O)COC2O[C@@H](C(O)CO)[C@H](O)[C@H]2O)[C@H](O)[C@H]1O | NJ211 | >128 µg/mL
Cc1cccc(CSc2cc(C(N)=S)ccn2)c1 | MY330/88 | 31 µM
Nc1ccc(S(=O)(=O)c2ccc(N)cc2)cc1 | DW21 | 64 µg/mL
CCCCCCCCOC1OC([C@H](CO)OC2O[C@@H](C(O)CO)[C@H](O)[C@H]2O)[C@H](O)[C@H]1O | NJ3404 | >128 µg/mL
O=c1c2ccccc2sn1CCO | ATCC 15769 | 32 µg/mL
CCNC(=O)O[C@H]1C(O[C@@H]2[C@@H](C)[C@H](O[C@H]3C[C@@](C)(OC)[C@@H](OC(C)=O)[C@H](C)O3)[C@@H](C)C(=O)O[C@H](CC)[C@@](C)(O)[C@H](O)[C@@H](C)/C(=N/OCCCC3CCCCC3)[C@H](C)CC2(C)O)O[C@H](C)C[C@@H]1N(C)C | 20092 | >50 µg/mL
COC(OC)c1ccc2c(c1)C(=O)c1nc3ccncc3c(=O)n1-2 | 19075 | 5 µg/mL
CC1(C)N=C(N)N=C(N)N1OCCCOc1cc(Cl)c(Cl)cc1Cl | 800 | 8 µg/mL
CCCCCCCCO[C@H]1OC([C@@H](COC)O[C@H]2O[C@H]([C@@H](O)CO)[C@@H](O)[C@@H]2O)[C@@H](OC)[C@@H]1OC | NJ211 | >12.8 µg/mL
CC[C@H]1OC(=O)[C@H](C)[C@@H](O[C@H]2C[C@@](C)(OC)[C@@H](O)[C@H](C)O2)[C@H](C)[C@@H](O[C@@H]2O[C@H](C)C[C@H](N(C)C)[C@H]2O)[C@](C)(OC)C[C@@H](C)C(=O)[C@H](C)[C@@H](O)[C@]1(C)O | 900 | 1 µg/mL
CCCC(=O)O[C@H]1[C@H](C)OC(O[C@H]2[C@H](C)[C@@H](O[C@@H]3O[C@H](C)C[C@H](N(C)C)[C@H]3O)C(C)(O)C[C@@H](C)/C(=N\OCCCOc3ccccc3)[C@H](C)[C@@H](O)[C@](C)(O)[C@@H](CC)OC(=O)[C@@H]2C)C[C@@]1(C)OC | 20092 (clarithromycin-resistant) | 0.78 µg/mL
CCCCCCCCc1ccc2c(c1)C(=O)c1nc3ccncc3c(=O)n1-2 | 19075 | 0.06 µg/mL
COc1ccc(C(F)(F)F)cc1NCc1cnc2nc(N)nc(N)c2c1C | NJ-168 serovar 4/6 | ≤0.128 µg/mL
O=C1c2ccccc2-n2c1nc1ccccc1c2=O |  | 4 µg/mL
COc1cccc(Sc2ncccn2)c1 | NJ211 | >12.8 µg/mL
CC[C@H]1OC(=O)[C@H](C)[C@@H](O[C@H]2C[C@@](C)(OC)[C@@H](OC(C)=O)[C@H](C)O2)[C@H](C)[C@@H](O[C@@H]2O[C@H](C)C[C@H](N(C)C)[C@H]2OC(=O)NNCc2ccccc2)C(C)(O)C[C@@H](C)/C(=N\OCCCC2CCCCC2)[C@H](C)[C@@H](O)[C@]1(C)O | 20092 (clarithromycin-resistant) | 0.78 µg/mL
N#Cc1ccnc(SCc2ccc(F)cc2)c1 | MY330/88 | 250 µM
COc1cccc(CSc2ncccn2)c1 | NJ211 | >12.8 µg/mL
CC[C@H]1OC(=O)[C@H](C)[C@@H](O[C@H]2C[C@@](C)(OC)[C@@H](OC(C)=O)[C@H](C)O2)[C@H](C)[C@@H](O[C@@H]2O[C@H](C)C[C@H](N(C)C)[C@H]2OC(=O)NN(C)C)C(C)(O)C[C@@H](C)/C(=N\OCCCC2CCCCC2)[C@H](C)[C@@H](O)[C@]1(C)O | 20092 (clarithromycin-resistant) | 3.13 µg/mL
CCCCNC(=O)OCCN=c1ssc2ccccc12 | ATCC 15769 | 4 µg/mL
CC(C)N=c1cc2n(-c3ccc(Cl)cc3)c3ccccc3nc-2cc1Nc1ccc(Cl)cc1 | 211 | 1 µg/mL
CC(C)(C)NC(=O)OCCn1sc2ccccc2c1=S | AN2 | 4 µg/mL
CCCCCCCCO[C@@H]1OC(C(CO[C@@H]2O[C@@H]([C@H](O)CO)[C@H](O)[C@H]2O)OC(C)=O)[C@H](OC(C)=O)[C@H]1OC(C)=O | NJ168 | >128 µg/mL
CCCCCCCCCCCCCCO/N=C1\[C@H](C)CC(C)(O)[C@H](O[C@@H]2O[C@H](C)C[C@H](N(C)C)[C@H]2O)[C@@H](C)[C@H](OC2C[C@@](C)(OC)[C@@H](O)[C@H](C)O2)[C@@H](C)C(=O)O[C@H](CC)[C@@](C)(O)[C@H](O)[C@H]1C | 20039 (clarithromycin-susceptible) | 50 µg/mL
COc1ccc(CSc2cc(C#N)ccn2)cc1 | MY330/88 | 250 µM
COc1ccc(C)c(NCc2cnc3nc(N)nc(N)c3c2C)c1 | NJ-168 serovar 1 | ≤0.128 µg/mL
CCCCCCCCO[C@H]1OC(CO[C@H]2O[C@H](CO)[C@@H](O)[C@@H]2OCc2ccccc2)[C@@H](OCc2ccccc2)[C@@H]1OCc1ccccc1 | NJ211 | >128 µg/mL
CC[C@H]1OC(=O)[C@H](C)[C@@H](O[C@H]2C[C@@](C)(OC)[C@@H](O)[C@H](C)O2)[C@H](C)[C@@H](O[C@@H]2O[C@H](C)C[C@H](N(C)C)[C@H]2O)[C@](C)(OC)C[C@@H](C)C(=O)[C@H](C)[C@@H](O)[C@]1(C)O | 20039 (clarithromycin-susceptible) | 0.78 µg/mL
CC(C)NC(=O)OCCN=c1ssc2ccccc12 | AN3 | 2 µg/mL
CCCCCCCCOC1OC([C@H](CO)OC2O[C@@H](C(O)CO)[C@H](O)[C@H]2O)[C@H](O)[C@H]1O | NJ304 | >128 µg/mL
CC[C@H]1OC(=O)[C@H](C)[C@@H](OC2C[C@@](C)(OC)[C@@H](O)[C@H](C)O2)[C@H](C)[C@@H](O[C@@H]2O[C@H](C)C[C@H](N(C)C)[C@H]2O)C(C)(O)C[C@@H](C)/C(=N\OCCCOc2ccccc2)[C@H](C)[C@@H](O)[C@]1(C)O | 20096 (clarithromycin-resistant) | 3.13 µg/mL
C#CCNC(=O)O[C@H]1C(O[C@@H]2[C@@H](C)[C@H](O[C@H]3C[C@@](C)(OC)[C@@H](OC(C)=O)[C@H](C)O3)[C@@H](C)C(=O)O[C@H](CC)[C@@](C)(O)[C@H](O)[C@@H](C)/C(=N/OCCCC3CCCCC3)[C@H](C)CC2(C)O)O[C@H](C)C[C@@H]1N(C)C | 20092 | 0.2 µg/mL
N#Cc1ccnc(SCc2ccccc2Cl)c1 | MY330/88 | >750 µM
Cc1cccc(Sc2nc(Cl)nc3nc[nH]c23)c1 | NJ211 | >12.8 µg/mL
CCCCc1ccc2c(c1)C(=O)c1nc3ccncc3c(=O)n1-2 | 19075 | 0.06 µg/mL
COc1ccc(Sc2ncnc3nc[nH]c23)c(OC)c1 | NJ211 | >12.8 µg/mL
COc1cc(OC)cc(N(C)Cc2cnc3nc(N)nc(N)c3c2C)c1 | NJ-168 serovar 4/6 | ≤0.128 µg/mL
OCCn1sc2ccccc2c1=S | ATCC 15769 | 8 µg/mL
CCCCCCCCO[C@@H]1O[C@H]([C@@H](CO)O[C@H]2O[C@H](CO)[C@@H](O)[C@@H]2O)[C@H](O)[C@H]1O | NJ168 | >128 µg/mL
CC[C@H]1OC(=O)[C@H](C)[C@@H](O[C@H]2C[C@@](C)(OC)[C@@H](OC(C)=O)[C@H](C)O2)[C@H](C)[C@@H](O[C@@H]2O[C@H](C)C[C@H](N(C)C)[C@H]2OC(=O)NNCCCCCc2ccccc2)C(C)(O)C[C@@H](C)/C(=N\OCCCC2CCCCC2)[C@H](C)[C@@H](O)[C@]1(C)O | 20039 (clarithromycin-susceptible) | 1.56 µg/mL
CCCCCCCCO[C@@H]1O[C@@H](C(CO[C@@H]2O[C@@H](C(COC(C)=O)OC(C)=O)[C@H](OC(C)=O)[C@H]2OC(C)=O)OC)[C@H](OC)[C@H]1OC | NJ211 | >128 µg/mL

The first 8 rows once more:

structure,strain,result
CC[C@H]1OC(=O)[C@H](C)[C@@H](OC2C[C@@](C)(OC)[C@@H](O)[C@H](C)O2)[C@H](C)[C@@H](O[C@@H]2O[C@H](C)C[C@H](N(C)C)[C@H]2O)C(C)(O)C[C@@H](C)/C(=N\OCCOc2ccccc2)[C@H](C)[C@@H](O)[C@]1(C)O,20096 (clarithromycin-resistant),25 µg/mL
CC1(C)S[C@@H]2[C@H](NC(=O)[C@H](C(=O)[O-])c3ccsc3)C(=O)N2[C@H]1C(=O)[O-].[Na+].[Na+],CIPT 140310006,35 µg/mL
CCCCCCCCNC(=O)O[C@H]1C(O[C@@H]2[C@@H](C)[C@H](O[C@H]3C[C@@](C)(OC)[C@@H](OC(C)=O)[C@H](C)O3)[C@@H](C)C(=O)O[C@H](CC)[C@@](C)(O)[C@H](O)[C@@H](C)/C(=N/OCCCC3CCCCC3)[C@H](C)CC2(C)O)O[C@H](C)C[C@@H]1N(C)C,20034,0.2 µg/mL
CO[C@H]1/C=C/O[C@@]2(C)Oc3c(C)c(O)c4c(O)c(c(/C=N/N5CCN(C6CCCC6)CC5)c(O)c4c3C2=O)NC(=O)/C(C)=C\C=C\[C@H](C)[C@H](O)[C@@H](C)[C@@H](O)[C@@H](C)[C@H](OC(C)=O)[C@@H]1C,101,1 µg/mL
CC(C)(C)NC(=O)OCCN=c1ssc2ccccc12,AN3,2 µg/mL
Cc1c(F)c(N2CCNC(C)C2)cc2c1c(=O)c(C(=O)O)cn2C1CC1,clinical strain 3,4 µg/mL
CO[C@H]1/C=C/O[C@@]2(C)Oc3c(C)c(O)c4c(O)c(c5c(c4c3C2=O)NC2(CCN(CC(C)C)CC2)N=5)=NC(=O)/C(C)=C\C=C\[C@H](C)[C@H](O)[C@@H](C)[C@@H](O)[C@@H](C)[C@H](OC(C)=O)[C@@H]1C,CIPT 140310003 (smooth),0.1 µg/mL
CCCCNC(=O)OCCn1sc2ccccc2c1=O,AN2,>32 µg/mL